A mixed list of measured activities; the numbers were collected in NIAID ChemDB.

Shared fields: whole-cell or culture tests

Percent inhibition refers to the dose given; in toxicity tests it is the harm to the cells.

CN1C2N=CN=C(N)C2=NC1c1cn(CCCP(=O)(O)O)nn1 ; cell line: CEM ; species: HIV-2 ; dose: 100 µM ; read-out: inhibition ; strain or isolate: ROD ; result: 0%
CCOCn1c(Sc2ccccc2)c(CC)c(=O)[nH]c1=S ; cell line: CEM ; method: syncytia ; changes: RT-Y181C ; species: HIV-1 ; read-out: fold resistance ; strain or isolate: IIIB ; result: 136
O=C(NCCc1ccccc1)Nc1nc2ccc(F)cc2s1 ; cell line: MT-4 ; method: cytopathic effect / XTT ; species: HIV-2 ; dose: 10 µg/mL ; read-out: inhibition ; result: 12%
CC(=O)NC1C=CN(c2cn(C(O)CCCP(=O)(O)O)nn2)C(=O)N1 ; cell line: CEM ; species: HIV-2 ; dose: 100 µM ; read-out: inhibition ; strain or isolate: ROD ; result: 0%
Cc1cc(S(N)(=O)=O)ccc1NC(=O)COc1ccc(Cl)cc1C(=O)c1cccc(C#N)c1 ; cell line: HeLa + HELA CD4+ ; method: β-galactosidase ; changes: RT-V106I Y181C ; species: HIV-1 ; read-out: fold resistance ; strain or isolate: HXB2 ; result: ~10
CCOP(=O)(OCC)C(O)n1cc(-n2ccc(=O)[nH]c2=O)nn1 ; cell line: CEM ; species: HIV-2 ; dose: 100 µM ; read-out: inhibition ; strain or isolate: ROD ; result: 0%
Cc1cc(S(N)(=O)=O)ccc1NC(=O)COc1ccc(Cl)cc1C(=O)c1cc(Cl)cc(C#N)c1 ; cell line: HeLa + HELA CD4+ ; method: β-galactosidase ; changes: RT-V108I Y181C ; species: HIV-1 ; read-out: fold resistance ; strain or isolate: HXB2 ; result: ~1
CC(C)c1c(Sc2ccccc2)n(COCCO)c(=S)[nH]c1=O ; cell line: CEM ; method: syncytia ; changes: RT-Y181C ; species: HIV-1 ; read-out: fold resistance ; strain or isolate: IIIB ; result: 30
Cc1nc(NC(=O)NCCc2ccccc2)sc1C ; cell line: MT-4 ; method: cytopathic effect / XTT ; species: HIV-2 ; dose: 0.1 µg/mL ; read-out: inhibition ; result: 13%
Cc1cc(S(N)(=O)=O)ccc1NC(=O)COc1ccc(Cl)cc1C(=O)c1cc(C#N)cc(C#N)c1 ; cell line: HeLa + HELA CD4+ ; method: β-galactosidase ; changes: RT-Y181C ; species: HIV-1 ; read-out: fold resistance ; strain or isolate: HXB2 ; result: ~1
CC(C)=CCOc1cc(NC(=S)c2ccoc2C)ccc1Cl ; cell line: CEM + CEM-SS ; method: p24 ; changes: RT-V108I ; species: HIV-1 ; read-out: fold resistance ; strain or isolate: NL4-3 ; result: 1.67
CN1C(=O)[C@@H](Cc2ccccc2)NC1=S ; cell line: MT-4 ; method: RT activity ; species: HIV-2 ; dose: 1 µg/mL ; read-out: inhibition ; result: 1%
CCC(=O)Nc1ccc(-c2cnc3nc(N)nc(N4CCOCC4)c3n2)cc1 ; cell line: MT-4 ; species: HIV ; read-out: EC50 ; strain or isolate: IIIB ; result: >100 µM
O=C(NCCc1ccccc1)Nc1nc2ccccc2s1 ; cell line: MT-4 ; method: cytopathic effect / XTT ; species: HIV-2 ; dose: 1 µg/mL ; read-out: inhibition ; result: 99%
CCOc1nc(N)nc2ncc(-c3ccc(OC)c(OC)c3)nc12 ; cell line: MT-4 ; species: HIV ; read-out: EC50 ; strain or isolate: IIIB ; result: >100 µM
C[n+]1cn(-c2cn(CCP(=O)(O)O)nn2)c(=O)[nH]c1=O ; cell line: CEM ; species: HIV-2 ; dose: 100 µM ; read-out: inhibition ; strain or isolate: ROD ; result: 0%
CC(C)c1c(Sc2ccccc2)n(COCc2ccccc2)c(=O)[nH]c1=O ; cell line: CEM ; method: syncytia ; changes: RT-K103N ; species: HIV-1 ; read-out: fold resistance ; strain or isolate: IIIB TIBO R82913-resistant (RT K103N) ; result: 250
COc1ncnc(NS(=O)(=O)c2ccc(N=C3C(=O)N(CN4CCOCC4)c4ccccc43)cc2)c1OC ; cell line: MT-4 ; method: cytopathic effect / MTT ; species: HIV-2 ; dose: 2 µg/mL ; read-out: inhibition ; strain or isolate: ROD ; result: 16%
CCOCn1c(Sc2ccccc2)c(C(C)C)c(=O)[nH]c1=O ; cell line: CEM ; method: syncytia ; changes: RT-Y181I ; species: HIV-1 ; read-out: fold resistance ; strain or isolate: IIIB ; result: >400
CC(=O)N1C(=O)[C@@H](Cc2ccccc2)NC1=S ; cell line: MT-4 ; method: cytopathic effect / XTT ; species: HIV-2 ; dose: 10 µg/mL ; read-out: inhibition ; result: 0%
CCOP(=O)(CC(O)n1cc(-n2c[n+](C)c(=O)[nH]c2=O)nn1)OCC ; species: HIV-2 ; dose: 100 µM ; read-out: inhibition ; strain or isolate: ROD ; result: 0%
Cc1cc(OCCCS(N)(=O)=O)ccc1NC(=O)COc1ccc(Cl)cc1C(=O)c1cc(F)cc(C(F)(F)F)c1 ; cell line: HeLa + HELA CD4+ ; method: β-galactosidase ; changes: RT-K103N ; species: HIV-1 ; read-out: fold resistance ; strain or isolate: HXB2 ; result: ~1
O=C(NCCc1ccccc1)Nc1nc2c(Cl)cccc2s1 ; cell line: MT-4 ; method: RT activity ; species: HIV-2 ; dose: 1 µg/mL ; read-out: inhibition ; result: 6%
CCc1c(Sc2cc(C)cc(C)c2)n(COCCO)c(=S)[nH]c1=O ; cell line: CEM ; method: syncytia ; changes: RT-Y188H ; species: HIV-1 ; read-out: fold resistance ; strain or isolate: IIIB ; result: ≥2500
Cc1cc(S(N)(=O)=O)ccc1NC(=O)COc1ccc(Cl)cc1C(=O)c1cccc(C#N)n1 ; cell line: HeLa + HELA CD4+ ; method: β-galactosidase ; changes: RT-K103N P225H ; species: HIV-1 ; read-out: fold resistance ; strain or isolate: HXB2 ; result: ~1
CCCCN1C(=O)[C@@H](Cc2ccccc2)NC1=S ; cell line: MT-4 ; method: cytopathic effect / XTT ; species: HIV-2 ; dose: 0.1 µg/mL ; read-out: inhibition ; result: 1%
Cc1cc(C#N)cc(C(=O)c2cc(Cl)ccc2OCC(=O)Nc2ccc(S(N)(=O)=O)nc2C)c1 ; cell line: HeLa + HELA CD4+ ; method: β-galactosidase ; changes: RT-Y181C ; species: HIV-1 ; read-out: fold resistance ; strain or isolate: HXB2 ; result: ~1
CCOP(=O)(CCCC(O)n1cc(-n2c[n+](C)c(=O)[nH]c2=O)nn1)OCC ; cell line: CEM ; species: HIV-2 ; dose: 100 µM ; read-out: inhibition ; strain or isolate: ROD ; result: 0%
O=C1[C@@H](Cc2ccccc2)NC(=S)N1c1ccccc1 ; cell line: MT-4 ; method: RT activity ; species: HIV-2 ; dose: 10 µg/mL ; read-out: inhibition ; result: 1%
Cc1cc(S(N)(=O)=O)ccc1NC(=O)COc1ccc(Cl)cc1C(=O)c1cc(F)cc(C#N)c1 ; cell line: HeLa + HELA CD4+ ; method: β-galactosidase ; changes: RT-V108I Y181C ; species: HIV-1 ; read-out: fold resistance ; strain or isolate: HXB2 ; result: ~1
CCOP(=O)(OCC)C(O)Cn1cc(-n2cc(C)c(=O)[nH]c2=O)nn1 ; cell line: CEM ; species: HIV-2 ; dose: 100 µM ; read-out: inhibition ; strain or isolate: ROD ; result: 0%

Repeating the first 4 entries:

{"smiles": "CN1C2N=CN=C(N)C2=NC1c1cn(CCCP(=O)(O)O)nn1", "cell line": "CEM", "species": "HIV-2", "dose": "100 µM", "read-out": "inhibition", "strain or isolate": "ROD", "result": "0%"}
{"smiles": "CCOCn1c(Sc2ccccc2)c(CC)c(=O)[nH]c1=S", "cell line": "CEM", "method": "syncytia", "changes": "RT-Y181C", "species": "HIV-1", "read-out": "fold resistance", "strain or isolate": "IIIB", "result": "136"}
{"smiles": "O=C(NCCc1ccccc1)Nc1nc2ccc(F)cc2s1", "cell line": "MT-4", "method": "cytopathic effect / XTT", "species": "HIV-2", "dose": "10 µg/mL", "read-out": "inhibition", "result": "12%"}
{"smiles": "CC(=O)NC1C=CN(c2cn(C(O)CCCP(=O)(O)O)nn2)C(=O)N1", "cell line": "CEM", "species": "HIV-2", "dose": "100 µM", "read-out": "inhibition", "strain or isolate": "ROD", "result": "0%"}

Conditions beyond the fields shown may differ between rows. ECn is the concentration giving n% inhibition of infection, replication or growth. Fold resistance has wild type as its base.